In assay [1] the test system is Huh-7 cells containing the self-replicating, subgenomic HCV replicon. Nature of the assay: HCV replicon assay (luciferase reporter). It counts as cell-based. Conditions: 72 h, Bright-Glo luciferase. Background: A replicon is a self-replicating genome or part of one, used to study replication in cells.
In the next assay the target is NS5B570-Con1 (Delta-21) (Hepatitis C virus genotype 1b (isolate Con1) (HCV), UniProt Q9WMX2). Put plainly: NS5B inhibition assay. Particulars: 50 nM NS5B570-Con1, cIRES RNA template, 2 h at 37° C.
Assay [2] deals with HCV genotype 1b HCV replicon harbored in Huh7 cells. Nature of the assay: Combination testing in HCV replicon (MacSynergy II). It counts as cell-based.

As usually defined, the EC50 is the concentration at which the effect is half-maximal. The low end stands for higher potency in that assay, the high end for lower potency in that assay. Usually IC50 stands for the concentration at which inhibition is half-maximal. Higher therefore signals weaker potency.

`CC(C)OC(=O)[C@H](C)NP(=S)(OC[C@@]1(F)O[C@@H](n2ccc(=O)[nH]c2=O)[C@](C)(O)[C@@H]1O)Oc1ccccc1` (stereo partly shown) showed an EC50 in assay [1] of 1 to 10 µM.
On NS5B570-Con1 (Delta-21), `C#C[C@]1(F)[C@H](n2ccc(=O)[nH]c2=O)O[C@](F)(COP(=O)(O)OP(=O)(O)OP(=O)(O)O)[C@H]1O` gave an IC50 below 1000 nM.
`CS(=O)(=O)Nc1ccc2c(c1)S(=O)(=O)N=C(C1=C(O)[C@@H]3[C@H]4CC[C@H](C4)[C@@H]3N(Cc3ccc(F)cc3)C1=O)N2`: the “Synergy Volume” value in assay [2] (combination with compound 18, 72 h, MacSynergy II, Bliss independence model) is recorded as 29.46 μM^2%. Besides, in assay [2] (combination with compound 18, class from synergy volume), the Determination result is on record as “Synergistic (volumes in the 25-100 range indicate synergistic behavior)”.

For the origin of these results see patent publication US10793591B2, “Substituted nucleosides, nucleotides and analogs thereof” (priority 2012, dated 2020).
